Laboratory results: paper PMC3810934 (Emerging Infectious Diseases, 2013)

How the values were obtained:
[1] = target: Oseltamivir-sensitive A/Washington/01/2007 neuraminidase (Influenza A virus (H3N2), UniProt A7UPN3); settings: conventional NI assay pH 6.5; H3N2 reference virus A/Washington/01/2007
[2] = target: Oseltamivir-sensitive A/California/12/2012 neuraminidase (Influenza A virus (H1N1pdm09), UniProt R4SI91); settings: conventional NI assay pH 6.5; H1N1 reference virus A/California/12/2012
[3] = target: A/Anhui/1/2013 (E2/S1) virus isolate neuraminidase (Influenza A virus (A/Anhui/1/2013(H7N9)), UniProt A0A024E3Q2); settings: conventional NI assay pH 6.5; virus isolate A/Anhui/1/2013 (E2/S1)

Substance | Fold change in IC50 compared with drug-sensitive subtype-specific control [1] | Fold change in IC50 compared with drug-sensitive subtype-specific control [2] | Fold change in IC50 compared with drug-sensitive subtype-specific control [3]
oseltamivir carboxylate | 1 -fold |  | 
peramivir |  | 1 -fold | 1 -fold
